Results on one compound are retold here after patent US20240050582A1, “CONJUGATES INCLUDING MULTIPLE SACCHARIDIC CHAINS ON A LINEAR PROTEIN AND USES IN MAMMALS FEED” (UNIVERSITEIT GENT, priority 2021, published 2024).

Series [1] deals with inflammation and tight junction markers. Description: Part E: blood cell counts, serum inflammatory markers, mucosal gene expression.
The test system of another series is fecal microbiota. Description: Part E: fecal microbiota (16S rRNA).
[2] abbreviates: d 5 PI, compared with control pigs, linear, P<0.05.

Take `CNCCCCC(CNCCCCC(N)C(=O)NCCCCC(N)C(C)=O)NCC(O)C(O)C(O[C@@H]1OC(CO)[C@H](O)C(O[C@@H]2OC(CO)[C@@H](O)C(O[C@@H]3OC(CO)[C@H](O)C(O[C@H]4OC(CO)[C@H](O)C(O)C4NC(C)=O)C3O[C@@H]3OC(C)[C@@H](O)C(O)C3O)C2NC(C)=O)C1O)C(O)CO` (some centres unmarked) [Coligo A6PL]: the “numbers of white blood cell, neutrophils, and lymphocytes” value in series [1] (d 2 PI) is “lower”. For the same compound, the neutrophils result in series [1] (d 5 PI) was “lower”. For the same compound, in series [1] (high dose of Coligo, peak of E. coli infection, compared with control pigs), the “mRNA expression of ZO1 and OCLN” value is reported as “enhanced”. The CLDN1 expression entry in series [1] (low dose Coligo, d 11 PI, compared with control pigs) is given as “relatively high CLDN1 expression”. For the same compound, the “serum C-reactive protein and haptoglobin” value in series [1] (low dose or high dose Coligo groups) was “reduced”. The “mRNA expression of inflammatory markers (IL1B, IL6, TNF) in ileal mucosa” value in series [1] (pig, in vivo) was “relative low mRNA expression”. Further, in the series with fecal microbiota (Coligo groups vs antibiotics group), the “relative abundance of Lactobacillaceae” value is “greater”. Also, in the series on fecal microbiota (setting [2]), the “relative abundance of Desulfovibrionaceae in fecal samples” value is listed as “greater” and the “relative abundance of Succinivibrionaceae in fecal samples” value was “lower”. In addition, the “Bacteroidetes and Proteobacteria in feces” value with fecal microbiota (d 5 PI, compared with the control diet, regardless of dose, P<0.10) is “to increase Bacteroidetes and reduce Proteobacteria”. Also, the “relative abundance of Paraprevotellaceae” value with fecal microbiota (low Coligo vs the other groups, P<0.05) was “lower”.
